Measured values from several laboratories, pooled; numbers as filed in NIAID ChemDB.

Shared fields: tests in culture; agent: Mycobacterium tuberculosis

An empty or dashed field is not shown. A number after MIC or MFC names an inhibition level or a share of isolates. MIC bound: limit read from a one-dose screen. Percent inhibition refers to the dose given; in toxicity tests it is the harm to the cells. ECn: concentration that inhibits the pathogen or its effect by n%. Rows are shuffled and stem from different studies.

compound	tested at	read by	changes	strain or isolate	endpoint	cells	value
CO[C@H]1/C=C/O[C@@]2(C)Oc3c(C)c(O)c4c(O)c(c5c(c4c3C2=O)NC2(CCN(CC(C)C)CC2)N=5)=NC(=O)/C(C)=C\C=C\[C@H](C)[C@H](O)[C@@H](C)[C@@H](O)[C@@H](C)[C@H](OC(C)=O)[C@@H]1C				2356-5 (RIF-R)	MBC		4 µg/mL
CCCCCCCCCCC(C(=O)O)S(=O)(=O)c1ccccc1				H37Rv	MIC		100 µg/mL
CN[C@H]1CCN(c2c(F)cc3c(=O)c(C(=O)O)cn4c3c2OC[C@@H]4C)C1				Rifampicin-resistant (5 strains pooled)	Mean MIC		9.7 µg/mL
O=C1/C(=C/c2ccc(Cl)cc2)c2ccccc2[C@@]12[C@H](c1ccc(Cl)cc1)C1CCCN1[C@]21C(=O)Nc2ccccc21		visual reading			MIC		>25 µg/mL
CCNc1nc(NCC)nc(NNc2nc(-c3ccccc3)c(C#N)c(=O)n2C)n1				H37Rv	EC50		>12.5 µg/mL
O=C(CCC(=O)Nc1ccccc1)Nc1ccccc1					MIC		500 µM
CO[C@H]1/C=C/O[C@@]2(C)Oc3c(C)c(O)c4c(O)c(c5c(c4c3C2=O)NC2(CCN(CC(C)C)CC2)N=5)=NC(=O)/C(C)=C\C=C\[C@H](C)[C@H](O)[C@@H](C)[C@@H](O)[C@@H](C)[C@H](OC(C)=O)[C@@H]1C				6 strains (rifampicin-resistant)	MIC90		12.5 µg/mL
CC1=C2C(=CO[C@H](C)[C@H]2C)C(=O)C(C(=O)O)=C1O	10 µg/mL			H37Rv	inhibition		66%
O=C(Nc1ccc(Br)cc1)C(=O)Nc1ccc(Br)cc1					MIC		4.1 µM
C=CCSc1nc2ccccc2c(=O)n1-c1cc(OC)c(Cl)cc1OC	12.5 µg/mL	BACTEC		H37Rv	inhibition		7%
Cn1c(NNc2nc(Nc3cccc(Cl)c3)nc(Nc3cccc(Cl)c3)n2)nc(-c2ccc(Cl)cc2)c(C#N)c1=O				H37Rv	MIC		>12.5 µg/mL
Fc1ccc(N2CN(c3ccc(F)cc3Br)CN(c3ccc(F)cc3Br)C2)c(Br)c1		colony count / visual reading		H37Rv	MIC		50 µg/mL
CCCCNC(=S)NNC(=O)c1ccncc1		resazurin		H37Rv	MIC		3.13 µg/mL
Cn1c(NNc2nc(NCc3ccccc3)nc(NCc3ccccc3)n2)nc(-c2ccccc2)c(C#N)c1=O				H37Rv	EC50		<12.5 µg/mL
CCCCCCCCCCC(Oc1ccc(C)cc1)C(=O)O				H37Rv	MIC		1 µg/mL
CC(C)c1ccc(NC(=O)CCC(=O)Nc2ccc(C(C)C)cc2)cc1					MIC		>1000 µM
CCCCCCCCCCC(Oc1ccccc1)C(=O)O				H37Rv	MIC		400 µg/mL
C[C@H]1COc2c(N3C[C@@H](N)C4(CC4)C3)c(F)cc3c(=O)c(C(=O)O)cn1c23				Rifampicin-resistant (5 strains pooled)	Mean MIC		2.4 µg/mL
Brc1ccc(N2CN(c3ccc(Br)cc3)CN(c3ccc(Br)cc3)C2)cc1		colony count / visual reading		H37Rv	MIC		125 µg/mL
COc1ccc(N2C(=O)C(=O)N(c3ccccc3[N+](=O)[O-])C2=S)cc1	12.5 µg/mL	BACTEC		H37Rv	inhibition		3%
COc1ccc(/C=C2/C(=O)[C@]3(c4ccccc42)[C@@H](c2ccc(OC)cc2)C2CCCN2[C@]32C(=O)c3cccc4cccc2c34)cc1		visual reading			MIC		1.56 µg/mL
CC(=O)N/N=C1\CC(C)(C)C2CCC1C2	12.5 µg/mL	BACTEC		H37Rv	inhibition		11%
CCCCCCCCCCCCCCC(Oc1ccc(Cl)c(Cl)c1)C(=O)O				H37Rv	MIC		1 µg/mL
Cc1nc2nnc(N)n2nc1C	12.5 µg/mL	BACTEC		H37Rv	inhibition		0%
Cc1ccc(NC(=O)CCC(=O)Nc2ccc(C)c(C)c2)cc1C					MIC		500 µM
COc1nc2ccc(Br)cc2cc1[C@@H](c1ccccc1)[C@@](O)(CCN(C)C)c1cccc2ccccc12					MIC50		0.03 µg/mL
CCN(CC)CCCN(C)Cc1c(-c2ccccc2)oc(-c2ccccc2)c1Cl.Cl.Cl		BACTEC		H37Rv	MIC bound		≤12.5 µg/mL
CN1C(=O)[C@@]2(c3ccccc31)N1CCCC1[C@H](c1ccc(Cl)cc1)[C@@]21C(=O)/C(=C/c2ccc(Cl)cc2)c2ccccc21		visual reading			MIC		12.5 µg/mL
FC(F)(F)c1cccc(N2CN(c3cccc(C(F)(F)F)c3)CN(c3cccc(C(F)(F)F)c3)C2)c1		colony count / visual reading		H37Rv	MIC		62.5 µg/mL
CC(=O)c1ccc(O)c(-c2csc(N/N=C(\C)c3cccnc3)n2)c1		resazurin		H37Rv (ATCC 27294)	EC50		>100 µg/mL
Cn1c(NNc2nc(Nc3cccc(Cl)c3)nc(Nc3cccc(Cl)c3)n2)nc(-c2ccccc2)c(C#N)c1=O				H37Rv	EC50	VERO	<12.5 µg/mL
COc1cccc(C2CC(c3c(O)c4cc(C)c(C)cc4oc3=O)=NN2)c1O		agar	Isoniazid-resistant	INHR-MTB	MIC90		>6.25 µg/mL
CCCC[P+](c1ccccc1)(c1ccccc1)c1ccccc1		broth dilution		H37Ra	MIC		>128 µg/mL
CO[C@@]12[C@H](COC(N)=O)C3=C(C(=O)C(C)=C(N)C3=O)N1C[C@H]1[C@@H]2N1C(=O)/C=C/c1ccccc1				H37Rv	MIC		0.2 µg/mL
FC(F)(F)c1ccccc1N1CN(c2ccccc2C(F)(F)F)CN(c2ccccc2C(F)(F)F)C1		colony count / visual reading		H37Rv	MIC		100 µg/mL
N=c1c2ccccc2c2ccccc2n1O	12.5 µg/mL	BACTEC		H37Rv	inhibition		5%
O=C1/C(=C/c2ccc(Cl)cc2)c2ccccc2[C@]12[C@@H](c1ccc(Cl)cc1)C1CCCN1[C@]21C(=O)Nc2ccc(Cl)cc21		visual reading			MIC		1.56 µg/mL
O=c1oc2ccccc2c(O)c1C1=NN(c2ccccc2)C(c2ccccc2-c2ccccn2)C1		agar	Isoniazid-resistant	INHR-MTB	MIC90		>6.25 µg/mL
C[C@H]1COc2c(N3CC[C@H](N)C3)c(F)cc3c(=O)c(C(=O)O)cn1c23				Rifampicin-sensitive (7 strains pooled)	Mean MIC		3.5 µg/mL
NNC(=O)c1ccncc1		luminescence		H37Ra-lux	EC50		0.11 µM
C=C(C[C@@H]1C(=C)CC[C@@H]2[C@@]3(C)CCC[C@@]12C(=O)OC3)c1ccoc1				H37Ra	MIC		100 µg/mL
CC(=O)N1N=C(C2=C(C)NC(=O)NC2c2ccccc2F)OC1c1ccccc1	250 µg/mL	agar / visual reading		H37Rv	inhibition		36%
COc1ccc2cc3[n+](cc2c1O)CCc1cc2c(cc1-3)OCO2		broth dilution / turbidity		H37Rv	MIC		>16 µg/mL
Cc1ccc(Nc2nc3c(s2)C(=O)c2ccccc2C3=O)cc1		BACTEC		H37Rv	MIC		1.6 µg/mL
CO[C@H]1/C=C/O[C@@]2(C)Oc3c(C)c(O)c4c(O)c(c(/C=N/N5CCN(C)CC5)c(O)c4c3C2=O)NC(=O)/C(C)=C\C=C\[C@H](C)[C@H](O)[C@@H](C)[C@@H](O)[C@@H](C)[C@H](OC(C)=O)[C@@H]1C				Rifampicin-sensitive (7 strains pooled)	Mean MIC		4.3 µg/mL
CC(=O)N1N=C(C2=C(C)NC(=O)NC2c2ccccc2F)OC1c1ccccc1F	250 µg/mL	agar / visual reading		H37Rv	inhibition		62%
CCOC(=O)C(=O)NCc1c(N)nnn1C	12.5 µg/mL	BACTEC		H37Rv	inhibition		0%
Cn1c(NNc2nc(Nc3cccc([N+](=O)[O-])c3)nc(Nc3cccc([N+](=O)[O-])c3)n2)nc(-c2ccc(Cl)cc2)c(C#N)c1=O				H37Rv	MIC	VERO	>12.5 µg/mL
CCCCCCCCCCC(Oc1cccc(Cl)c1)C(=O)O				H37Rv	MIC		0.1 µg/mL
C#CCN1C(=O)[C@@]2(c3ccccc31)N1CCCC1[C@H](c1ccc(OC)cc1)[C@@]21C(=O)/C(=C/c2ccc(OC)cc2)c2ccccc21		visual reading			MIC		3.13 µg/mL
CCCCCCCCCCCCCCC(Oc1ccc(OC)cc1)C(=O)O				H37Rv	MIC		0.1 µg/mL
Cc1nn(C(=S)S)c(C)c1N=Nc1ccc(F)cc1		BACTEC		H37Rv	MIC bound		>12.5 µg/mL
O=C(CCC(=O)Nc1ccc(F)cc1)Nc1ccc(F)cc1					MIC		250 µM
COC(=O)[C@]1(C)CCC[C@]2(C)c3ccc(C(C)C)cc3C(=O)C[C@@H]12		BACTEC		H37Rv	MIC bound		>6.25 µg/mL
FC(F)(F)c1ccc(N2CN(c3ccc(C(F)(F)F)cc3)CN(c3ccc(C(F)(F)F)cc3)C2)cc1		colony count / visual reading		H37Rv	MIC		25 µg/mL
Cc1cc2oc(=O)c(C(=O)/C=C/c3ccc(Cl)cc3Cl)c(O)c2cc1C		agar	Isoniazid-resistant	INHR-MTB	MIC90		>6.25 µg/mL
CC(C)C(N)C(=O)NC(CO)C(=O)O		BACTEC		H37Rv	MIC		≥12.8 µg/mL
CCCCCCCCCCCCCCC(C(=O)O)S(=O)(=O)c1ccccc1				H37Rv	MIC		1 µg/mL
COc1ccc(N2CN(c3ccc(OC)cc3)CN(c3ccc(OC)cc3)C2)cc1		colony count / visual reading		H37Rv	MIC		250 µg/mL
O=c1[nH]c(=O)n([C@@H]2O[C@H](CO)[C@@H](O)[C@H]2O)o1	12.5 µg/mL	BACTEC		H37Rv	inhibition		4%
C/C(=N\Nc1nc(-c2cccs2)cs1)c1cccnc1		resazurin		H37Rv (ATCC 27294)	EC90		>100 µg/mL
CN1C(=O)[C@@]2(c3ccccc31)N1CCCC1[C@H](c1ccc(Br)cc1)[C@@]21C(=O)/C(=C/c2ccc(Br)cc2)c2ccccc21		visual reading			MIC		3.125 µg/mL
O=C(O)C(=O)O.OC(CNCCc1ccccc1)CN1c2ccccc2Sc2ccccc21		resazurin		STB-9102	MIC		4 µg/mL
COC(=O)c1nc2[nH]n(-c3ccccc3)c(=O)c2c(C(=O)OC)c1C(C)C(=O)c1ccc(Cl)cc1	12.5 µg/mL	BACTEC		H37Rv	inhibition		0%
Cn1c(NNc2nc(Nc3ccc(Cl)cc3Cl)nc(Nc3ccc(Cl)cc3Cl)n2)nc(-c2ccccc2)c(C#N)c1=O	12.5 µg/mL			H37Rv	inhibition		14%
CN(C)c1ccc(N=Nc2ccc3ccc4c(N=Nc5ccc(N(C)C)cc5)ccc5ccc2c3c54)cc1	6.25 µg/mL	resazurin		H37Rv	inhibition		-25%
Cc1nn(-c2ccccc2)c(Cl)c1-c1nc(N)nc2c1c(C)nn2-c1ccc(S(=O)(=O)O)cc1		resazurin		H37Rv	MIC		3.25 µg/mL
CSCCC(NC(=O)OCc1ccccc1)C(=O)NC(CO)C(=O)O		BACTEC		H37Rv	MIC bound		>12.8 µg/mL
COc1ccc2c(Cc3ccc(Cl)cc3)c3[n+](cc2c1OC)CCc1cc2c(cc1-3)OCO2		broth dilution / turbidity		H37Rv	MIC		4 µg/mL
C[C@H]1COc2c(N3C[C@@H](N)C(C)(C)C3)c(F)cc3c(=O)c(C(=O)O)cn1c23				Rifampicin-resistant (5 strains pooled)	Mean MIC		3.1 µg/mL
COc1ccc2c(CC=C(C)C)c3[n+](cc2c1OC)CCc1cc2c(cc1-3)OCO2		broth dilution / turbidity		H37Rv	MIC		4 µg/mL
CC(=O)c1oc(C)nc1C		BACTEC		H37Rv	MIC bound		>12.5 µg/mL
Clc1ccc(N2CN(c3ccc(Cl)cc3)CN(c3ccc(Cl)cc3)C2)cc1		colony count / visual reading		H37Rv	MIC		100 µg/mL
CC(=O)C1=C(C)N2C(=NC3=C(CCc4ccccc43)C2c2ccc(F)cc2)S1	12.5 µg/mL	BACTEC		H37Rv	inhibition		0%
COc1ccc2c(Cc3ccc(F)cc3)c3[n+](cc2c1OC)CCc1cc2c(cc1-3)OCO2		broth dilution / turbidity		H37Rv	MIC		8 µg/mL
Cc1cc2oc3c(c2c(=O)[nH]1)C(=O)c1ccccc1C3=O	12.5 µg/mL	BACTEC		H37Rv	inhibition		-8%
Cn1c(NNc2nc(NCc3ccco3)nc(NCc3ccco3)n2)nc(-c2ccc(Cl)cc2)c(C#N)c1=O	12.5 µg/mL			H37Rv	inhibition		17%

7 of the rows above, restated:

compound	tested at	read by	changes	strain or isolate	endpoint	cells	value
CCCCCCCCCCCCCCC(C(=O)O)S(=O)(=O)c1ccccc1				H37Rv	MIC		1 µg/mL
COC(=O)c1nc2[nH]n(-c3ccccc3)c(=O)c2c(C(=O)OC)c1C(C)C(=O)c1ccc(Cl)cc1	12.5 µg/mL	BACTEC		H37Rv	inhibition		0%
COC(=O)[C@]1(C)CCC[C@]2(C)c3ccc(C(C)C)cc3C(=O)C[C@@H]12		BACTEC		H37Rv	MIC bound		>6.25 µg/mL
CC(=O)c1ccc(O)c(-c2csc(N/N=C(\C)c3cccnc3)n2)c1		resazurin		H37Rv (ATCC 27294)	EC50		>100 µg/mL
O=C1/C(=C/c2ccc(Cl)cc2)c2ccccc2[C@@]12[C@H](c1ccc(Cl)cc1)C1CCCN1[C@]21C(=O)Nc2ccccc21		visual reading			MIC		>25 µg/mL
C[C@H]1COc2c(N3C[C@@H](N)C(C)(C)C3)c(F)cc3c(=O)c(C(=O)O)cn1c23				Rifampicin-resistant (5 strains pooled)	Mean MIC		3.1 µg/mL
N=c1c2ccccc2c2ccccc2n1O	12.5 µg/mL	BACTEC		H37Rv	inhibition		5%